US20210332086A1 (published 2021)

What follows are binders tested against MERS-CoV S-protein (on 293FT effector cells) (MERS-CoV, UniProt K9N5Q8) (assay: cell-based or functional assay).
SLTQINTTLLDLEYEMRSLEEVVKKLNESYIDLKEL [Peptide 11] was tested, and the “EC50 (µM), cell-cell fusion assay” value was 0.039 µM. In the case of SLTQINTTLLDLEYEMRSLEEVVKKLNESYIDEKEL [Peptide 12], the “EC50 (µM), cell-cell fusion assay” value is reported as 0.831 µM. For SLTQINWTLLDLTYEMESLQQVVKALNEYYIDLKE [Peptide 5], the “EC50 (µM), cell-cell fusion assay” value was 0.432 µM. In the case of SLTQINWTLLDLTYEMESLQQVVKALNEYYIDLKHL [Peptide 6], the “EC50 (µM), cell-cell fusion assay” value is reported as 0.917 µM. In the case of SLTQINWTLLDLTYEMESLQQVMKALNEYYIDLKHL [Peptide 7], the “EC50 (µM), cell-cell fusion assay” value is reported as 2.35 µM.
